A mixed list of measured activities; the numbers were collected in NIAID ChemDB.

All rows: growth or infection tests; agent: Human cytomegalovirus; cells: HFF; read-out: EC50

ECn is the concentration giving n% inhibition of infection, replication or growth.

compound,strain or isolate,method,result
Cc1ccc(Nc2ccc(Nc3ccc(C)cc3S(=O)(=O)[O-])c3c2C(=O)c2c(O)ccc(O)c2C3=O)c(S(=O)(=O)[O-])c1.[Na+].[Na+],AD169,cytopathic effect,50 µM
COC(=O)[C@H](C)NP(=O)(OC[C@H]1C/C1=C\n1cnc2c(=O)[nH]c(N)nc21)Oc1ccccc1,TOWNE,plaque count,>100 µM
Nc1nc(NC2CC2)c2ncn(/C=C3/C[C@H]3CO)c2n1,AD169,plaque count,>74 µM
Nc1nc(Cl)nc2c1ncn2/C=C1/CC1CO,AD169,cytopathic effect,>0.8 µM
N=c1ccc(=Nc2ccc(N)c3c(O)c4ccccc4c(O)c23)c2c(=O)c3ccccc3c(=O)c1=2,EC,plaque count,75 µM
COC(=O)C(C)NP(=O)(OC[C@H]1C/C1=C/n1cnc2c(N)nc(N)nc21)Oc1ccccc1,AD169,plaque count,5.5 µM
O=C(NCCc1c[nH]c2ccccc12)C1=Cc2ccncc2CC1,TOWNE,virus yield,8.9 µM
COC(=O)[C@H](C)NP(=O)(OC[C@H]1C/C1=C/n1cnc2c(=O)[nH]c(N)nc21)Oc1ccccc1,AD169,plaque count,25 µM
Nc1[nH]c(=O)nc2c1ncn2/C=C1/C[C@@H]1CO,AD169,cytopathic effect,>85.8 µM
COC(=O)[C@H](C)NP(=O)(OC[C@H]1C/C1=C/n1cnc2c(OC)nc(N)nc21)Oc1ccccc1,AD169,plaque count,4.5 µM
Nc1ncnc2c1ncn2/C=C1/C[C@H]1CO,AD169,plaque count,6.9 µM
Nc1c(S(=O)(=O)O)cc(Nc2cccc(S(=O)(=O)/C=C/S(=O)(=O)O)c2)c2c1C(=O)c1ccccc1C2=O,AD169,cytopathic effect,10 µM
Nc1nc2c(ncn2COC(CO)CO)c(=O)[nH]1,TOWNE,plaque count,7.4 µM
CCNc1ccc(NCC)c2c1C(=O)c1ccccc1C2=O,AD169,cytopathic effect,>10 µM
COC(=O)C(C)NOP(OC[C@H]1C/C1=C/n1cnc2c(N)[nH]c(=O)nc21)Oc1ccccc1,TOWNE,plaque count,>100 µM
COC(=O)[C@H](C)NP(=O)(OCC1C/C1=C/n1cnc2c(N)ncnc21)Oc1ccccc1,TOWNE,virus yield,0.14 µM

Lines come from different laboratories, so protocols vary.